The text below walks through data of US11192863B2, “Antiviral compounds and methods” (Biotron Limited, priority 2003, dated 2021).

Some results come without the dose or concentration used.

This data set has as its system HIV. In kind it is cell-based. As to conditions: Table 19a; rank by overall average p24 antigen at all drug concentrations, 1 = most effective.
For `N=C(N)NC(=O)Cc1ccc2ccccc2c1` [2-(2-napthyl)acetoylguanidine], the p24 rank order was found to be 10.
Next, `N=C(N)NC(=O)/C=C/c1cccc(C(F)(F)F)c1` [3-(trifluoromethyl)cinnamoylguanidine]: 2; `Cc1cccc(/C=C/C(=O)NC(=N)N)c1` [3-methylcinnamoylguanidine]: 3; `N=C(N)NC(=O)c1ccc(-c2ccccc2)cc1` [4-phenylbenzoylguanidine]: 11.
For `NC(N)=NC(=O)c1nc(Cl)c(N2CCCCCC2)nc1N` [5-(N,N-hexamethylene)amiloride], the p24 rank order was determined as 6.
In turn, `COc1ccc2cc(C(=O)NC(=N)N)ccc2c1` [6-methoxy-2-naphthoylguanidine] had a p24 rank order of 5.
In the case of `N=C(N)NC(=O)/C=C/c1cccc(Br)c1` [(3-Bromocinnamoyl)guanidine] it was 1; in that of `NC(N)=NC(=O)/C=C/C=C/c1ccccc1` [(5-Phenyl-penta-2,4-dienoyl)guanidine], 9.
Next, `N=C(N)NC(=O)C1CC1c1ccccc1` (stereo not drawn) [(trans-2-Phenylcyclopropanecarbonyl)guanidine]: 8; `N=C(NC(=O)CCc1ccccc1)Nc1ccccc1` [N-(3-phenylpropanoyl)-N′-phenylguanidine]: 12; `NC(N)=NC(=O)/C=C/c1ccccc1` [cinnamoylguanidine]: 4.
`N=C(N)NC(=O)/C=C/c1cccc2ccccc12` [trans-3-(1-napthyl)acryloylguanidine]: the p24 rank order amounted to 7.
